Compound potency records, mixed from different reports. Data source: NIAID ChemDB in PubChem.

Common to all: growth or infection tests; species: Hepatitis C virus; cells: Huh7; measure: EC50

ECn is the concentration giving n% inhibition of infection, replication or growth. Two numbers with a dash give a range or band. Rows are shuffled and stem from different studies. Blank or dashed fields: not listed here.

structure,strain,read by,value
CC(C)[C@H](NC(=O)NC1CCCC1)C(=O)N1CC[C@H]2[C@H]1C(C1CCC1)C(=O)N2C(=O)C1CC1,-,ELISA,3.7 µM
CNC(=O)c1c(-c2ccc(F)cc2)oc2cc(-c3ccco3)c(OC(C)C)cc12,-,replicon,<30 µM
NC(=S)NC(c1ccccc1)(c1ccccc1)c1ccccc1,-,replicon,<1 µM
COc1cc(C(=O)N2[C@@H](c3nccs3)[C@@H](c3cnccn3)C[C@@]2(Cc2cscn2)C(=O)O)ccc1C(C)(C)C,genotype 1b,replicon,<0.1 µM
NC(=S)Nc1ccc(N2CCCC3CCCCC32)cc1,-,replicon,<1 µM
CCOC(=O)c1c(CSc2ccccn2)n(C)c2cc(Br)c3c(c12)CN(C)CO3,Genotype 1A,ELISA,12.5 µM
COc1cc(C(=O)N2[C@@H](c3nccs3)[C@@H](c3cnccn3)C[C@@]2(Cc2ccsn2)C(=O)O)ccc1C(C)(C)C,Genotype 1A,replicon,<10 µM
CNC(=O)c1c(-c2ccc(F)cc2)oc2cc(N3CCOCC3)c(OCc3cscn3)cc12,-,replicon,<1 µM
CCN(CC)c1ccc(C2CC(=O)C3=C(C2)Nc2ccccc2N(C(C)=O)C3c2ccccc2)cc1,-,replicon,>32 µM
CCOC(=O)c1c(CSc2cccs2)n(C)c2cc(Br)c3c(c12)CN(C)CO3,Genotype 1A,ELISA,12.8 µM
CCN(CC)c1ccc(C2Nc3cc(C(=O)c4ccccc4)ccc3NC3=C2C(=O)CC(C)(C)C3)cc1,-,replicon,22.9 µM
COc1cc(C(=O)N2[C@@H](c3nccs3)[C@@H](c3cnccn3)C[C@@]2(Cc2ccccn2)C(=O)O)ccc1C(C)(C)C,genotype 1b,replicon,0.1–10 µM
CCCOc1cc2c(C(=O)NC)c(-c3ccc(F)cc3)oc2cc1N(CCC)S(C)(=O)=O,-,replicon,<1 µM
CC1(C)CC[C@@]2(C(=O)NCc3cn(Cc4ccc(Cn5cc(CNC(=O)[C@]67CCC(C)(C)CC6C6=CCC8[C@@]9(C)CC[C@H](O)C(C)(C)C9CC[C@@]8(C)[C@]6(C)C[C@H]7O)nn5)cc4)nn3)C(C1)C1=CCC3[C@@]4(C)CC[C@H](O)C(C)(C)C4CC[C@@]3(C)[C@]1(C)C[C@H]2O,-,luciferase / entry,0.003 µM
NC(=S)Nc1cccc(CNc2ccccc2)c1,-,replicon,<1 µM
CNC(=O)c1c(-c2ccc(F)cc2)oc2cc(N)c(OC)cc12,-,replicon,<10 µM
CC1(C)CC(=O)C2=C(C1)Nc1ccc(C(=O)c3ccccc3)cc1NC2c1cccc(Cl)c1,-,replicon,15.6 µM
CCOC(=O)[C@@H](NC(=O)N[C@H](C(=O)N1CC[C@H]2[C@H]1C(C1CCC1)C(=O)N2C(=O)C1CC1)C(C)C)C(C)C,-,ELISA,0.3 µM
CCNc1cc2oc(-c3ccc(F)cc3)c(C(=O)NC)c2cc1OCCCOCC,-,replicon,<1 µM
NC(=S)NCc1ccc(OCc2ccccc2)cc1,-,replicon,<1 µM
CC1(C)CC(=O)C2=C(C1)Nc1cc(C(=O)c3ccccc3)ccc1NC2c1cccc([N+](=O)[O-])c1,-,replicon,5.07 µM
CCOC(=O)c1c(COc2ccccc2)n(C)c2cc(Br)c(O)c(CN(N3CCC(CO)CC3)N3CCC(CO)CC3)c12,Genotype 1A,ELISA,50.6 µM
COc1cc(C(=O)N2[C@@H](c3nccs3)[C@@H](c3cnccn3)C[C@@]2(Cc2ccccc2)C(=O)O)ccc1C(C)(C)C,Genotype 1A,replicon,10–100 µM
CNC(=O)c1c(-c2ccncc2)oc2ccc(OC(C)C)cc12,-,replicon,>30 µM
CCCCOC(=O)C1CCN(c2ccc(NC(N)=S)cc2F)CC1,-,replicon,<1 µM
CNC(=O)c1c(-c2ccc(F)cc2)oc2cc(N3CC(C)OC(C)C3)c(OC(C)C)cc12,-,replicon,<10 µM
CCOC(=O)c1c(CSc2ccccc2)n(C)c2cc(C#N)c(O)c(CN(N3CCC(CO)CC3)N3CCC(CO)CC3)c12,Genotype 1A,ELISA,51.8 µM
NC(=S)Nc1ccc(N2CCC3CCCCC3C2)cc1,-,replicon,<1 µM
COc1cc(C(=O)N2[C@@H](c3nccs3)[C@@H](c3cnccn3)C[C@@]2(Cn2cccn2)C(=O)O)ccc1C(C)(C)C,genotype 1b,replicon,<0.1 µM
CNC(=O)c1c(-c2ccc(F)cc2)oc2cc(N(CS(C)(=O)=O)OC)c(OCc3cccc(C#N)c3)cc12,-,replicon,<1 µM
COc1ccc(C2Nc3cc(C(=O)c4ccccc4)ccc3NC3=C2C(=O)CC(C)(C)C3)cc1OC,-,replicon,17.8 µM
NC(=S)Nc1cccc(Oc2ccccc2)c1,-,replicon,<1 µM
CNC(=O)c1c(-c2ccc(F)cc2)oc2cc(-c3cn[nH]c3C)c(OC(C)C)cc12,-,replicon,<1 µM
CCOC(=O)c1c(CSc2ccccc2)n(C)c2cc(Br)c(O)c(CN(N3CCN(CCO)CC3)N3CCN(CCO)CC3)c12,Genotype 1A,ELISA,22.2 µM
COc1cc(C(=O)N2[C@@H](c3ncc(C)s3)[C@@H](c3cnccn3)C[C@@]2(Cc2nccs2)C(=O)O)ccc1C(C)(C)C,genotype 1b,replicon,<0.1 µM

The last 3 rows once more:

structure,strain,read by,value
CNC(=O)c1c(-c2ccc(F)cc2)oc2cc(-c3cn[nH]c3C)c(OC(C)C)cc12,-,replicon,<1 µM
CCOC(=O)c1c(CSc2ccccc2)n(C)c2cc(Br)c(O)c(CN(N3CCN(CCO)CC3)N3CCN(CCO)CC3)c12,Genotype 1A,ELISA,22.2 µM
COc1cc(C(=O)N2[C@@H](c3ncc(C)s3)[C@@H](c3cnccn3)C[C@@]2(Cc2nccs2)C(=O)O)ccc1C(C)(C)C,genotype 1b,replicon,<0.1 µM